Test results as given in paper PMC10113987 (EJNMMI Research, 2023).

Test: general procedure: Fmoc solid-phase peptide synthesis; 2-CTC resin; HBTU/DIPEA
Settings: whole synthesis, scale 0.1 mmol

DOTA-Ahx-Axh-Glu-Trp-Pro-Arg-Pro-Gln-Ile-Pro-Pro-OH
isolated mass: 33.6 mg
